Test results taken from PubChem BioAssay AID449728 (The Scripps Research Institute Molecular Screening Center, 2010).
This is a selection; strong and weak results do not stand in their true shares. Some salts or complexes appear as unconnected parts, following the source record. Activity calls are given as the source filed them.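 How the source made its calls: active means inhibition above the campaign's mean inhibition across all tested compounds plus 3 SD (cut at about 9.9% in these data); inactive means the rest.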

assay: bacterial viability reduction in E. coli – absorbance, OD600, counter-screen for AddAB inhibitor project, primary screen (AID 449728);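 further: uninfected addAB+ strain grown without phage in ampicillin broth; 0% = DMSO wells and 100% = ciprofloxacin 0.95 µg/ml wells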; details: E. coli V3065 growth, 18 h, at 11.9 µM, active compounds read high

| Compound | inhibition |
| --- | --- |
| COc1ccc(OP(C)(=O)Nc2ccccn2)cc1 (configuration not stated) | inactive: -2.85% |
| CN(C)CCOC(=O)C(O)(c1ccccc1)C1CCCC1 (configuration not stated) | inactive: 3.03% |
| Cc1c(NP(C)(=O)Oc2ccc(C(C)C)cc2)c(=O)n(-c2ccccc2)n1C (configuration not stated) | inactive: 0.72% |
| O=[N+]([O-])c1cc([N+](=O)[O-])c(Nc2ccccn2)c([N+](=O)[O-])c1 | inactive: 0.67% |
| CP(=O)(Nc1ccccn1)Oc1ccccc1 (configuration not stated) | inactive: -0.59% |
| COc1ccccc1OP(C)(=O)Nc1ccc(C)cc1C (configuration not stated) | inactive: 2.44% |
| CCc1ccc(OP(C)(=O)O)cc1 | inactive: 1.4% |
| Cc1cc(C)cc(OP(C)(=O)Nc2cccc(C(F)(F)F)c2)c1 (configuration not stated) | inactive: -2.01% |
| COc1ccccc1OP(C)(=O)Nc1ccc(C)c(C)c1 (configuration not stated) | inactive: 0.84% |
| COc1ccc(OP(C)(=O)Nc2ccccc2Br)cc1 (configuration not stated) | inactive: 0.61% |
| Cc1nc2ccc3ccccc3c2o1.O=[N+]([O-])c1cc([N+](=O)[O-])c(O)c([N+](=O)[O-])c1 | inactive: -4.1% |
| CP(=O)(Nc1ccc(Cl)cc1Cl)Oc1ccccc1 (configuration not stated) | inactive: -3.31% |
| CP(=O)(OCCOc1ccccc1)OCCOc1ccccc1 | inactive: -0.68% |
| CCOC(=O)c1ccc(NP(C)(=O)Oc2ccc(F)cc2)cc1 (configuration not stated) | inactive: -0.43% |
| COc1ccc(OP(C)(=O)Nc2ccc(SC(F)(F)F)cc2)cc1 (configuration not stated) | inactive: 1.42% |
| CCN(CC)CCCOC(=O)C(O)(c1ccccc1)C1CCCCC1 (configuration not stated) | inactive: -3.17% |

| Compound | inhibition |
| --- | --- |
| CP(=O)(Nc1ccccc1)Oc1ccc(F)cc1 (configuration not stated) | inactive: -3.68% |
| CCCCCOc1ccc(NP(C)(=O)Oc2ccc(Cl)cc2Cl)cc1 (configuration not stated) | inactive: -2.16% |
| O=[N+]([O-])c1cc([N+](=O)[O-])c(OC2CCCCC2O)c([N+](=O)[O-])c1 (configuration not stated) | inactive: -3% |
| CP(=O)(Nc1ccccc1F)Oc1ccccc1 (configuration not stated) | inactive: 1.24% |
| CC(C)c1ccc(OP(C)(=O)Nc2ccc(SC(F)(F)F)cc2)cc1 (configuration not stated) | inactive: -0.35% |
| O=C(OC1CN2CCC1CC2)c1ccc([N+](=O)[O-])cc1 (configuration not stated) | inactive: -0.33% |
| O=C(OCCN1CCN(CCOCc2ccccc2)CC1)C(O)(c1ccccc1)c1ccccc1 | inactive: -1.47% |
| COc1ccc2c(c1O)-c1c(O)c(OC)cc3c1[C@H](C2)[N+](C)(C)CC3.O=[N+]([O-])c1cc([N+](=O)[O-])c([O-])c([N+](=O)[O-])c1[O-] | inactive: -1.12% |
| CP(=O)(Nc1ccc(SC(F)(F)F)cc1)Oc1ccc(F)cc1 (configuration not stated) | inactive: -0.17% |
| CCOP(C)(=S)SCC(=O)NC(C)(CC)C(=O)O (configuration not stated) | inactive: 1.82% |
| CP(=O)(Nc1ccc2c(c1)OCCO2)Oc1ccccc1 (configuration not stated) | inactive: -1.92% |
| Cc1ccccc1NP(C)(=O)Nc1ccccc1C | inactive: 0.18% |
| COc1ccc(OP(C)(=O)Nc2cccc(Br)c2)cc1 (configuration not stated) | inactive: 0.55% |
| CN(C)CCOC(=O)C(O)(c1ccccc1)C1CCCCC1 (configuration not stated) | inactive: -3.73% |
| COc1ccc(NP(C)(=O)Oc2ccccc2OC)cc1 (configuration not stated) | inactive: 1.66% |
| O=[N+]([O-])c1cc([N+](=O)[O-])c(NCC2CCS(=O)(=O)C2)c([N+](=O)[O-])c1 (configuration not stated) | inactive: -1.58% |
